Potato spindle tuber viroid, loop 6: variant abundance in plants

Reference: Wu et al. 2024, doi:10.1371/journal.ppat.1012142.

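Three N. benthamiana plants were inoculated with the whole mutant pool. Samples came from the inoculated region at 5 days, the leaf margin at 10 and upper systemic leaves at 12.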

Region: loop 6 of PSTVd (intermediate strain), upper and lower strand joined, each 5' to 3', the first 5 letters being the upper strand, closing pairs included. Wild type: UGACCGCGAG. Varied positions (N): UNNNCGNNNG.

Values are reads per thousand in the sample; higher means more abundant, 0 means not found.
Each value is the mean of three plants.
"Pool" is the share in the plasmid pool used as inoculum, on the same scale.
The inoculated region was read from the minus strand, the other sites from the plus strand.
IR is the inoculated region, LM the leaf margin, Sys the systemic leaves.
The authors trace changes outside the varied positions to PCR and sequencing errors or to mutation in the plant; presence does not show that a variant is infectious alone.
Samples held 36,220 to 57,551 reads, so the smallest values rest on one or two reads.
For reference, wild type rose from 20.7 per thousand in the pool to 195, 198, 203 (inoculated region), 629, 591, 734 (leaf margin) and 942, 870, 868 (systemic leaves).

sequence	pool	IR	LM	Sys
UUAACGGGUG	0.157	0.610	0.0592	0
UCGCCGGUGG	0.248	0.108	0	0
UUUACGAAUG	0.275	0.102	0.0155	0
UCAUCGCAUG	0.183	0.0949	0.00773	0
UGCCCGGUGG	0.157	0.107	0.00841	0
UACUCGCACG	0.261	0.0781	0	0
UACUCGGUCG	0.340	0.107	0.00773	0
UCAGCGCUAG	0.0784	0.119	0	0
AAGGCGCGAG	0.0131	0	0	0
UACACGCAAG	0.0915	0.603	0.0407	0.0338
UGUACGUAUG	0.314	0.101	0.0920	0
UCUUCGAGAG	0.209	0.0955	0.186	0
UUCUCGGUAG	0.314	0.0480	0	0
UUCGCGGAAG	0.118	0.0712	0.00773	0
UCUACGUUAG	0.366	0.0418	0.0169	0
UCCCCUCGAG	0.0392	0.00615	0	0
UUCGCGAGAG	0.144	0.0768	0.0667	0
UCUGCGAGCG	0.235	0.0831	0.00773	0
UAGCCGCAUG	0.105	0.0896	0.0268	0
UGGACGACCG	0.157	0.114	0	0
UUUCCGCCUG	0.183	0.119	0.0232	0
UCUGCGAUUU	0.0131	0	0	0
UGCCCGUCCG	0.196	0.107	0.0155	0
UCCGCGUUAG	0.484	0.112	0.0169	0.00684
UCCGCGUGUG	0.248	0.0772	0.00773	0
UAGACGAGGG	0.170	0.119	0.00920	0
UGCCCGGGGG	0.131	0.119	0	0
UUGACGCCGG	0.183	0.0708	0	0
UAUGCGACGG	0.183	0.0771	0.00773	0
UCAUCGAGUG	0.261	0.114	0	0
UUACCGAGCG	0.157	0.150	0.00773	0.0397
UAGACGCGCG	0.196	0.596	0.102	0
UAAUCGCACG	0.196	0.125	0.00920	0
UAACCGUAUG	0.248	0.148	0.147	0
UUAUCGGUCG	0.222	0.563	0.0747	0.0262
UUACCGGGGG	0.0523	0.156	0.0247	0
UGUCCGUAUG	0.327	0.0659	0.0814	0
UUCACGCUGG	0.222	0.107	0	0
UAUUCGUUCG	0.301	0.0891	0	0
UGUUCGUCCG	0.314	0.0538	0.00920	0
UGUACGUGUG	0.261	0.0538	0.00773	0
UUCUCGACAG	0.275	0.0945	0.00920	0
UGGACGUUUG	0.379	0.156	0	0
UGAGCGAUUG	0.327	0.0482	0.00773	0
UGGUCGUUAG	0.366	0.114	0	0
UGCCCGAAGG	0.0654	0.107	0	0
UAACCGUGCG	0.235	0.643	0.0913	0
UCAUCGCACG	0.0784	0.0531	0	0
UGUACUCGAG	0.0131	0.00579	0	0
UCGCCGAACG	0.209	0.0715	0	0
UAGGCGCUCG	0.353	0.0779	0.0247	0
UGUACGUCUG	0.353	0.0835	0	0
UCUACGGGUG	0.170	0.0472	0.0460	0
UCUGCGGGGG	0.196	0.125	0	0
UUGACGACCG	0.209	0.0726	0.00773	0
UAAUCGUUGG	0.314	0.0416	0	0

A selection of 6 entries from above:

UACACGCAAG (pool 0.0915) read IR 0.603; LM 0.0407; Sys 0.0338.
UCGCCGGUGG (pool 0.248) read IR 0.108; LM 0; Sys 0.
UGCCCGAAGG (pool 0.0654) read IR 0.107; LM 0; Sys 0.
UGUACUCGAG (pool 0.0131) read IR 0.00579; LM 0; Sys 0.
UUAACGGGUG (pool 0.157) read IR 0.610; LM 0.0592; Sys 0.
UAACCGUAUG (pool 0.248) read IR 0.148; LM 0.147; Sys 0.